Measured values from patent publication US20150086555A1 (THERACLONE SCIENCES, published 2015).
Numbering of substitutions follows the chain as printed.

B1: TCN-557 (5081_A04) (antibody, V domains shown)
VH: QVQLVQSGAEVKKPGASVKVSCKASGHTFTGYYIHWVRQAPGQGLEWMGWINPDSGATSSAQNFQGRVTMTGDTSSSTAYMELSRLSFDDTAVYYCARVLFTSPFDFWGEGTLVTVSS
VL: QAVVTQEPSLAVSPGGTVTLTCGSSTGAVTRGHYPYWFQQKPGQAPRALIYDSAGNRHSWTPARFSGSLLGGKAALTLSGAQPEDEAEYYCLLSYSGVWVFGGGTKLTVL
B2: TCN-560 (5084_P10) (antibody, V domains shown)
VH: EVQLVESGGGLVQPGGSLRLSCAASGFIFRNYWMSWVRQAPGKGLEWVANIKQDGREKYYVDSLRGRVNISRDNAENSLYLHMNSLRVEDTAVYFCARARMVVVTGDGFDVWGHGTMVTVSS
VL: DIQMTQSPSSLSASVGDRVTITCRASQNIKRYFNWYQQKPGKAPKLLIYAASNLENGVPSRFSGSGSGTDFTLTISSLQPEDFATYYCQQSFSKSWTFGQGTNVDIK
B3: TCN-555 (5246_L16) (antibody, V domains shown)
VH: QVQLVQSGAEVKRPGSSVKVSCTASGGIFRKNAISWVRQAPGQGLEWMGGIIAVFNTANYAQKFQNRVKITADESGNTAYMELSSLTSDDTAVYYCASHPKYFYGSGSYPDFWGQGTLVTVSS
VL: QSALTQPRSVSGSPGQSITISCTGGSSDIGASNSVSWYQQHPGKAPKLVIFDVTERPSGVPHRFSGSKSGNTASLTVSGLQPDDEADYFCCAYGGKYLVVFGGGTKVTVL
B4: TCN-563 (5237_B21) (antibody, V domains shown)
VH: B3 VH with V5A, N66G, T87R
VL: B3 VL with I18V, G25S, I29V, F51Y, D83E
B5: TCN-526 (5084_C17) (antibody, V domains shown)
VH: EVLMVESGGGLVQPGGSVRLSCVASGFSFSSHWMTWVRQAPGKGLEWVANIEDDGGDKYYVDSVKGRFIISRDNAKNSVYLQMNSLRAEDTAVYFCARGSGSSDRSDYDPHYYYYLDVWGKGATVTVSS
VL: DIQLTQSPSSLSASVGDRVTITCRASQSISRYLNWYQQKPGKAPKLLLFAASTLLDGVPSRFSGSGSGTDFTLTISSLQPEDFATYYCQRNHSPSWTFGQGTRVEIK
B6: TCN-564 (5256_A17b) (antibody, V domains shown)
VH: QVQLVQSGADVKKPGSSVTVSCKASGGSFSNYGINWVRQAPGQGLEWMGGIIPLINAPNYAPKFQGRVTITADMFSNIVSLQLTSLRTDDTAVYYCARRKMTTAIDYWGQGTLVTVSS
VL: QPVLSQPPSASASLGASVTLTCTLSSGFDNYQVAWYQQRPGKGPRFVMRVGNGGNVASKGDGIPDRFSVSGSGLNRYLTIKNIQEDDESDYYCGADHGSGNNFVSPYVFGGGTKLTVL
B7: TCN-527 (5086_C06) (antibody, V domains shown)
VH: QVQLQESGPGLVKPSETLSLNCAVSGGSISNYYWSWIRQPPGKGLEWIGYISYNGRPKYNPSLTSRVTISVDTSKDQFSLELRSVTAADTALYYCARETRFGELLSPYDAFEIWGQGTMVTVSS
VL: DIQMTQSPSSLSASVGDRVTMTCRASQNIRSYLNWYQQRPGTAPKLLIYAASTLHSGVPSRFSGGGSGTDFTLTINNLQPEDFASYYCQQSYDNPQTFGQGTKVEIK
B8: TCN-528 (5087_P17) (antibody, V domains shown)
VH: QVQLVQSGSEVKKPGASVKVSCKASGYTFTNYDINWIRQAPGQGLEWMGWINPNSGTTGSAQRFQGRVTITVDTSITTVYMELSSLRSDDTAIYYCARGRELLRLQHFLTDSQSERRDCFDPWGQGTLVTVSS
VL: DIQMTQSPSSLSASVGDRVTITCRANQDIGIYLNWYQQNPGKVPKLLLHGASSLQGGVPSRFSASGSGTDFTLTIHSLQPEDLATYYCQQSRRLPYTFGQGTRVELK
B9: TCN-529 (5297_H01) (antibody, V domains shown)
VH: QITLRESGPTLVKPTQTLTLTCTFSGFSLSTNGVNVGWIRQPPGKALEWLALIYWDDDKRYSPSLKRRLTITKDTSKNQVVLTLTNMDPVDTATYYCAHRPDFYGDFEYWGPGTLVTVSS
VL: QSALTQPASVSGSPGQSITISCTGSSSDIGGYNYVSWYQQHPGKAPKLMIYDVNNRPSGVSNRFSGSKSGNTASLTISGLQTDDEADYYCGSYTGSPHYVFGTGTKVTVL
B10: TCN-530 (5248_H10a) (antibody, V domains shown)
VH: QVQLVQSGAEVRKPGSSVKVSCKASGGPFMSYAIGWVRQAPGQGLEWMGGINPVFGRPHYAQKFQGRVTIATDDSTKTSYMELSSLTSEDTGMYYCASRYSRSSPGTFESWGQGTLVTVSS
VL: EIVMTQFPATLSVSPGERVTLSCRASQSVSNNLAWYQQKPGQPPRLLIYDASTRATGVPAKFSGTGSGTEFTLSISSLQSEDFAVYYCQQYHNWPPSYSFGLGTKLEIK
B11: TCN-531 (5091_H13) (antibody, V domains shown)
VH: EVQLVESGGDLVQPGRSLKLSCTGSGFTFGDYGVTWVRQAPGKGLEWVGFIRTRPWGGTADTAASVKGRFTISRDDSKSLAYLQMNSLKTEDTAVYYCCRDAPPNVEVASMTNWYFDLWGRGTLVTVSS
VL: DIQLTQSPSSLSASVGDRVTITCRASQGILNCLAWYQQKPGKVPNLLMYAASTLQSGVPSRFSGSGFGTDFTLTISSLQPEDVATYYCQTYGGVSTFGGGTKVEIR
B12: TCN-532 (5262_H18) (antibody, V domains shown)
VH: QVQLQESGPGLVKPSETLSLTCTVSGGSVSSETYYWSWIRQPPGKGLEWIGYIYYIGNTDYRPSLKSRVTISLDTSKNQFSLKLSSVTAADTAVYYCARGAYYDSSGYPAFYIWGQGTMVTVSS
VL: QSVLTQPPSVSGAPGQRVTISCTGSSSNIGSDYDVHWYKQLPGTAPKLLIFGNSNRPSGVPDRFSGSKSGTSASLAITGLQAEDEADYYCQSYDSSLSGFHVFGSGTKVTVL
B13: TCN-533 (5256_A17a) (antibody, V domains shown)
VH: B6 VH
VL: QPVLTQPPSASASLGASVTLTCTLSSAYSNYKVDWYQQRPGKGPRFVMRVGTGGIVGSKGDGIPDRFSVLGSGLNRYLTIKNIQEEDESDYHCGADHGSGSNFVSPYVFGGGTKLTVL
B14: TCN-521 (3280_D18) (antibody, V domains shown)
VH: EVQLVQSGGGLVQPGGSLRLACVVSGFTVTSNYITWVRQAPGKGLEWVSVIYSHGRAYYSASVNGRFTISRHTSKNTVYLEMNSLRPEDTAVYYCAGGGLVGGYDEYFFDYWGQGTLATVSS
VL: ETVLTQSPGTLSLTPGERATLSCRVGQSVSGSHLAWYQQKPGQAPRLLIYGASSRATGIPDRFGGSVSGTDFTLTISRLEPEDSAVYYCQQYGDSRYTFGQGTKLEIK
B15: TCN-534 (5249_B02) (antibody, V domains shown)
VH: QVQLVQSGAEVKKPGSSVKVSCRESGGTFNGYTITWVRQAPGQGLEWMGGIIPMMGTVNYAQKLQGRVTITTDYFTKTAYMDLNNLRSEDTAMYYCVKIRYTGQQLLWGQGTLVTVSS
VL: DIQMTQSPSTLSASIGDRVTITCRASQSIASWLAWYQQKPGKAPKLLIYEAVNLESGVPSRFSGSGSGTDFTLTISSLQPDDFATYFCQHYGTISQTFGGGTKVEIK
B16: TCN-535 (5246_P19) (antibody, V domains shown)
VH: QVQLVQSGSEVKKPGTSVKVSCTASGSVFTNYGISWVRQAPGQGLEWMGGIIPLFGAAKYAQKFQGRVTITADESTKTVYMELSRLTSKDTAIYFCAKAPRVYEYYFDQWGQGTPVTVSS
VL: EIVLTQSPGTLSLSPGERATLSCRASQSVSSSQLAWYQQKPGQAPRLIIYGASTRATGIPDRFSGSGSGTDFTLTIGRLEPEDFAVFFCQQYSTSPPTFGQGTKVDFK
B17: TCN-536 (5095_N01) (antibody, V domains shown)
VH: QVQLQQWGAGLLKPSETLSLTCAVYGGSFSVSGYYWSWIRQPPGRGLEWIGEISHGGSTNYNPSLKSRVTISVDTTKNQFSLRLSSVTAADTAVYYCARGTDPDTEVYCRVGNCAAFDYWGQGSLVTVSS
VL: EIILAQSPGTLSLSPGERATLSCRASQFVSTRSLAWYQQRPGQAPRLLIYGASSRATGIPDRFSGSGSGTDFTLTISRLEPEDFAVYYCQHYGYSPRYAFGQGSKVEIK
B18: TCN-522 (3212_I12) (antibody, V domains shown)
VH: QVQLQQWGAGLLKPSETLSLTCTVSGGSLTDYSWNWIRQPPGKGLEWIGDTLHNGYTNYNPSLRGRVSISIDTSKNQVSLRLTSVTAADTALYYCARGSGGYGGFDYFGKLRTWDFWGQGTLVTVSS
VL: DIQLTQSPSSLSASVGDRVTITCRASQGIRNDLGWYQQKPGNAPKRLIFGASSLQSGVPSRFSGSGSGTEFTLTISSLQPEDFATYYCLQHNSYPYTFGQGTKLEIK
B19: TCN-543 (5081_G23) (antibody, V domains shown)
VH: QVHLVQSGAEVRKPGDSVKVSCKTSGYTFSTYPVAWVRQVPGQGLEWMGWISTYNGNTNFAQNFQGRVTLTTDTTTNTAYMEVRSLKFDDTAVYYCARVEGSYRDFWNNQNRFDPWGQGTLVTVSS
VL: SYVLTQPPSVSVAPGQTARISCGGSNIGGKSVHWYQQKPGQAPVLVVYDDSGRPSGIPERFSGSNSGDTATLTISRVEAGDEADYFCQVWDNFGGVFGTGTKVTVL
B20: TCN-546 (5089_L08) (antibody, V domains shown)
VH: QVQLQQWGAGLLKPSETLSLTCGVYGGSLSDYYWSWIRQPPGKGLEWIGEINHSGGTNYNPSLKRRVTISVDTSKKQFSLKMNSVTAADTAVYYCARGTDPDTEVYCRAGNCAAFDFWGQGTLVTVSS
VL: EIVLTQSPGTLSLSPGERATLSCRASHFVIGRAVAWYQQKPGQAPRLLIYGASSRATGIPDRFSGSGSGTDFTLTISRLETEDFAVFYCQHYGSSPRYAFGQGTKLEIK

Assays:
[1] = biological target: hemagglutinin (HA) of influenza A/Solomon Islands/3/06 (H1N1) on whole virions (Influenza A virus A/Solomon …)
[2] = biological target: T1, hemagglutinin (HA) of influenza A/Wisconsin/67/05 (H3N2) on whole virions (Influenza A virus …); test: ELISA; BCC supernatant on coated inactivated whole virions
T1 construct: whole, on cells

[3] = biological target: Hemagglutinin (HA) of influenza A virus A/Japan/305/57 H2N2, on whole virions (Influenza A virus A/Japan/305/1957 …)

| Binder | ELISA virus binding (OD450) [1] | ELISA virus binding (OD450) [2] | ELISA virus binding (OD450) [3] |
| --- | --- | --- | --- |
| B1 | 2.32 OD450 | 0.07 OD450 | – |
| B2 | 3.63 OD450 | 0.07 OD450 | – |
| B3 | 2.89 OD450 | 0.06 OD450 | – |
| B4 | 3.62 OD450 | 0.07 OD450 | – |
| B5 | 0.06 OD450 | 3.65 OD450 | – |
| B6 | 3.54 OD450 | 0.1 OD450 | – |
| B7 | 3.03 OD450 | 0.07 OD450 | – |
| B8 | 3.62 OD450 | 0.24 OD450 | – |
| B9 | 0.07 OD450 | 3.62 OD450 | – |
| B10 | 3.52 OD450 | 0.06 OD450 | – |
| B11 | 3.23 OD450 | 3.45 OD450 | – |
| B12 | 0.06 OD450 | 3.67 OD450 | – |
| B13 | 3.54 OD450 | 0.1 OD450 | – |
| B14 | – | 1.1 OD450 | – |
| B15 | 3.55 OD450 | 0.07 OD450 | – |
| B16 | 3.43 OD450 | 0.08 OD450 | – |
| B17 | 3.63 OD450 | 3.66 OD450 | – |
| B18 | 2.12 OD450 | 0.07 OD450 | – |
| B19 | – | 0.07 OD450 | – |
| B20 | – | – | 0.07 OD450 |
